Results of unrelated studies side by side (data: NIAID ChemDB).

Common to all: whole-cell or culture tests; species: Respiratory syncytial virus

An empty or dashed field is not shown. ECn: concentration that inhibits the pathogen or its effect by n%. Neighbouring rows are from separate reports.

SMILES | strain or isolate | read by | cell line | measure | result
CCn1nc(-c2ccc(Cn3ccc4ccccc43)cc2)nc1C |  |  |  | MIC | 80 µg/mL
CC=NC(=N)c1nc(-c2ccc(C)cc2)n(C/C=C/c2ccccc2)n1 | LONG | cytopathic effect | HeLa | EC50 | >20 µg/mL
O=C(NC1CC1)c1cc2c(s1)-c1ccccc1N(C(=O)c1ccc(NC(=O)c3ccccc3-c3ccccc3)cc1)CC2 | Clinical isolate FM58-8 (A) | plaque count | HeLa | EC50 | 0.38 µM
O=[N+]([O-])c1ccc2c(c1)CSSC2 | LONG | cytopathic effect | HeLa | EC50 | 11.4 µM
COC(=O)[C@]1(C)CCC[C@]2(C)c3cc(Br)c4nc(C(F)(F)F)[nH]c4c3CCC12 |  | plaque count | HeLa | EC50 | >4 µg/mL
CN[C@H]1C[C@@H](n2cnc3c(N)ncnc32)[C@H](O)[C@@H]1O |  |  | HFF | EC50 | >100 µg/mL
Cc1ccc(O)c(Cn2c(NCCc3ccc(F)cc3)nc3ccccc32)n1 |  | cytopathic effect | HeLa | EC50 | 100 µM
N#Cc1cc(NC(=O)c2ccccc2)c(=O)n2c1[nH]c1ccccc12 |  | syncytia | HEP-2 | EC50 | 0.9 µg/mL
Cc1cc(=O)c2c(O)c(C)c(O[C@H]3O[C@H](CO)[C@@H](O)[C@H](O)[C@H]3O)c(C)c2o1 |  | cytopathic effect | HEP-2 | EC50 | 6.9 µg/mL
Cc1cc(C)c2nc(NCCCN3CCCC3=O)n(Cc3nc(C)ccc3O)c2c1 |  | cytopathic effect | HeLa | EC50 | 100 µM
COC(=O)[C@]1(C)CCC[C@]2(C)c3ccc4nc5c(nc4c3CCC12)CCCC5 |  | plaque count | HeLa | EC50 | >4 µg/mL
CC=NC(=N)c1nc(-c2cccc(OC)c2)n(COCCO)n1 | LONG | cytopathic effect | HeLa | EC50 | ≥40 µg/mL
CCc1nc(CC(=O)NN=C(C)C)nn1CC |  |  |  | MIC | >400 µg/mL
CSCCCNc1nc2ccccc2n1Cc1nc(C)ccc1O |  | cytopathic effect | HeLa | EC50 | 15.8 µM
Cc1nc(Cc2n[nH]c(=S)n2-c2ccccc2)nn1C |  |  |  | MIC | 80 µg/mL
COC(=O)[C@]1(C)CCC[C@]2(C)c3cc(Br)c4nc(C)[nH]c4c3CCC12 |  | plaque count | HeLa | EC50 | >4 µg/mL
C=C(N=CC)c1nc(-c2ccc(OC)cc2)n([C@@H]2O[C@H](CO)[C@@H](O)[C@H]2O)n1 | LONG | cytopathic effect | HeLa | EC50 | 100 µg/mL
COc1ccc(CCNc2nc3ccccc3n2Cc2nc(C)ccc2O)cc1 |  | cytopathic effect | HeLa | EC50 | 2.512 µM
CC(NC(=S)Nc1ccc(NC(=O)c2ccccc2F)cc1C#N)c1ccc(F)cc1 | A2 | ELISA | HFF | EC50 | >10 µg/mL
COCCCNc1nc2c(C)cc(C)cc2n1Cc1nc(C)ccc1O |  | cytopathic effect | HeLa | EC50 | 100 µM
COc1ccc(-n2c(Cc3nc4n(n3)CCCC4)n[nH]c2=S)cc1 |  |  |  | MIC | 80 µg/mL
COC(=O)[C@]1(C)CCC[C@]2(C)c3ccc4nc(-c5ccccc5)c(-c5ccccc5)nc4c3CCC12 |  | plaque count | HeLa | EC50 | >4 µg/mL
CCOC(=O)c1cc(C#N)c2[nH]c3ccccc3n2c1=O | FM-58-8 | plaque count | HEP-2 | EC50 | 28.3 µg/mL
C=C(N=CC)c1nc(-c2cccc(OC)c2)n(C2O[C@H](CO)[C@@H](O)[C@H](O)[C@H]2O)n1 | LONG | cytopathic effect | HeLa | EC50 | 100 µg/mL
Cc1ccc(O)c(Cn2c(NCCCCCCO)nc3ccccc32)n1 |  | cytopathic effect | HeLa | EC50 | 10 µM
N#Cc1cc(C#N)c2[nH]c3ccccc3n2c1=O | FM-58-8 | plaque count | HEP-2 | EC50 | 1.43 µg/mL
Cc1ccc(O)c(Cn2c(NCCCN3CCN(C)CC3)nc3ccccc32)n1 |  | cytopathic effect | HeLa | EC50 | 0.316 µM
O=C(/C=C/c1ccc(O)c(O)c1)O[C@@H]1CC(O)(C(=O)O)C[C@@H](OC(=O)/C=C/c2ccc(O)c(O)c2)C1O | 57754 (TYPE A6) | cytopathic effect | HEP-2 | EC50 | 0.16 µg/mL
CC=NC(=N)c1nc(-c2cccc(C)c2)n(C/C=C/c2ccccc2)n1 | LONG | cytopathic effect | HeLa | EC50 | >20 µg/mL
COC(=O)c1ccc2c(c1)CSSC2 | LONG | cytopathic effect | HeLa | EC50 | 31.8 µM
Cc1nc(CC(=O)NN)nn1C |  |  |  | MIC | >400 µg/mL
c1ccc2c(c1)CSSC2 | LONG | cytopathic effect | HeLa | EC50 | 4.5 µM
Cc1ccc(O)c(Cn2c(NCCc3ccccn3)nc3ccccc32)n1 |  | cytopathic effect | HeLa | EC50 | 50.1 µM
CC(=O)c1ccc2c(c1)CSSC2 | LONG | cytopathic effect | HeLa | EC50 | >163.9 µM
CC=NC(=N)c1nc(-c2ccc(OC)cc2)n(COCCO)n1 | LONG | cytopathic effect | HeLa | EC50 | 100 µg/mL

Repeating the final 4 entries:

SMILES,strain or isolate,read by,cell line,measure,result
c1ccc2c(c1)CSSC2,LONG,cytopathic effect,HeLa,EC50,4.5 µM
Cc1ccc(O)c(Cn2c(NCCc3ccccn3)nc3ccccc32)n1,,cytopathic effect,HeLa,EC50,50.1 µM
CC(=O)c1ccc2c(c1)CSSC2,LONG,cytopathic effect,HeLa,EC50,>163.9 µM
CC=NC(=N)c1nc(-c2ccc(OC)cc2)n(COCCO)n1,LONG,cytopathic effect,HeLa,EC50,100 µg/mL